The numbers were not newly measured in paper PMC5086636 (Toxins, 2016), which cites them from elsewhere.

Amino acid sequences for entries named in this document (tags omitted). Residues count along the entry.
UniProt P29101, 37-86: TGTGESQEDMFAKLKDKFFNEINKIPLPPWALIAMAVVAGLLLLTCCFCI

What is called Kd is a measure of binding affinity in units of concentration.

The target in the data set is Synaptotagmin-II 37-86 (UniProt P29101). To be noted: cited from earlier work.

As for BoNT/B 1241-1277 (from UniProt P10844), the Kd was 0.299 µM.
